Patent publication US7951827B2, “Synthesis and antiprotozoal activity of dicationic 3,5-diphenylisoxazoles” (The University of North Carolina at Chapel Hill, priority 2005, dated 2011)
No dose or concentration is given here for some results.

Test system: Plasmodium falciparum
Test: In vitro antiprotozoal activity against Plasmodium falciparum
Format: cell-based
Conditions: P. falciparum vs VERO cytotoxicity, relative to furamidine
Method: In vitro antiprotozoal activities, see Ismail, M. A., et al., J. Med. Chem. 46, 4761-4769 (2003), and cytotoxicity were measured following established protocols, see Balz, T., et al., EMBO J., 4, 1273-1277 (1985); Räz. […] Other positive controls employed were melarsoprol (against T. brucei), chloroquine, and artemisinin (against P. falciparum), and podophyllotoxin (against VERO cells).

Row | SMILES | therapeutic indices, times greater than that of furamidine
1 | COc1cc(C(=N)N)ccc1-c1cc(-c2cccc(C(=N)N)c2)no1.Cl.Cl [Compound 18, 5-(4-Amidino-2-methoxyphenyl)-3-(3-amidinophenyl)isoxazole dihydrochloride] | 120 times
2 | COc1ccc(C(=N)N)cc1-c1cc(-c2ccc(C(=N)N)cc2)on1.Cl.Cl [Compound 21, 3-(5-Amidino-2-methoxyphenyl)-5-(4-amidinophenyl)isoxazole dihydrochloride] | 200 times
